# Test system: CD4^+CD25^int memory T-cell pool
# Conditions: pre, after DAB389IL-2, after 3 vaccination cycles
substance,measurement,value
denileukin diftitox [DAB389IL-2],frequencies of recall antigen-specific Interferon-γ secreting T cells,did not reveal any changes
